# In patent US6417174B1, “Inhibitors of β-lactamases and uses therefor” (Northwestern University, priority 1997, dated 2002):
# The chains behind the UniProt entries cited, without tags or fusion partners. Residues count along the entry.
# UniProt P62593, 24-286 limits assumed: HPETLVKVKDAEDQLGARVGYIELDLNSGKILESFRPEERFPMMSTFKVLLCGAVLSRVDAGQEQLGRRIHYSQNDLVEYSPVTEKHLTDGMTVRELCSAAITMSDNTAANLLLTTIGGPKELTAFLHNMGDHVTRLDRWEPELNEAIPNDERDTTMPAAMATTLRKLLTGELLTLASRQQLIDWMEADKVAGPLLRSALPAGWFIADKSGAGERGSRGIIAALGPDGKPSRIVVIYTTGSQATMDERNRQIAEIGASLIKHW
# Molecular target: TEM-1 β-lactamase from E. coli (Escherichia coli, UniProt P62593)
# Experiment: Inhibition of TEM-1 β-lactamase, spectrophotometric assay (FAP substrate)
# Assay type: biochemical
# Settings: read-out: Ki E. coli TEM-1; Tables 2A/2B; pH 7.0, 25° C., 100 μM FAP; N.I. = no inhibition observed at an inhibitor concentration of 100 μM
smiles,measurement,value
OB(O)c1ccc(F)cc1,Ki,> 100 µM
O=C(O)c1ccc(B(O)O)cc1,Ki,> 100 µM
COc1ccc(B(O)O)cc1,Ki,> 100 µM
